# Mutational scan of HIV-1 Vif (LAI) in cells with APOBEC3G

Data from the supplement of Langley et al. 2025, preprint, doi:10.1101/2025.10.20.683452.

Vif of LAI (a laboratory-adapted subtype B strain), residues 12-115; positions count from the first residue of the whole protein:
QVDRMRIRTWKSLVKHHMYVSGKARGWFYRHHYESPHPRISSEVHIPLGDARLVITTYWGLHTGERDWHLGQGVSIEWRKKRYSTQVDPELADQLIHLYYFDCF

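Pooled viruses with one designed change each in Vif went through two 72 h rounds in SupT1 cells expressing APOBEC3G. Frequencies after the second round, in three biological replicates, were compared with the merged pool after the first round.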

Values are log2 enrichment relative to wild type (0); lower means weaker defence against APOBEC3G and poorer growth.
Each entry names the wild-type residue, its position and the residue put in its place.
This list holds changes to glutamate only.
The median of three replicates is given.
Input reads are the counts in the merged round-one pool, before selection.

Q12E (input reads 481) read -2.18. With V13E (input reads 361) the assay gave -1.11. D14E (input reads 424) read -1.44. For R17E (input reads 507) the result was -1.70. With I18E (input reads 762) the assay gave -2.85. With W21E (input reads 29) the assay gave -2.67. K22E (input reads 86) gave -0.02. S23E (input reads 556) gave -3.83. For L24E (input reads 612) the result was 1.08.

For H28E (input reads 182) the result was -2.04. M29E (input reads 463) gave -3.03. Y30E (input reads 738) read -0.83. V31E (input reads 69) read 1.47. S32E (input reads 1250) read -2.29. G33E (input reads 2109) read -2.43. K34E (input reads 67) read 0.03. For A35E (input reads 129) the result was 1.16. With R36E (input reads 74) the assay gave -0.75.

G37E (input reads 825) read -2.41. With Y40E (input reads 672) the assay gave -1.61. With R41E (input reads 171) the assay gave -0.82. H42E (input reads 406) read 1.95. With H43E (input reads 557) the assay gave 1.01. Y44E (input reads 381) gave -2.70. With S46E (input reads 3099) the assay gave -1.52. H48E (input reads 456) read -1.30. For P49E (input reads 36) the result was 1.16.

R50E (input reads 17) read 1.32. I51E (input reads 207) gave -3.46. For V55E (input reads 245) the result was -2.96. For I57E (input reads 191) the result was -1.49. P58E (input reads 383) gave -1.85. G60E (input reads 375) read -0.78. I66E (input reads 44) gave 1.24. For T67E (input reads 849) the result was -2.05. With Y69E (input reads 510) the assay gave -1.04.

G71E (input reads 653) gave -3.48. For H73E (input reads 158) the result was 2.76. T74E (input reads 21) gave 2.31. With G75E (input reads 544) the assay gave 1.51. For R77E (input reads 418) the result was -1.42.

The opening 2 entries, copied out:

| substitution | input reads | median score |
|---|---|---|
| Q12E | 481 | -2.18 |
| V13E | 361 | -1.11 |

The scan is noisy: the rank correlation of replicates is about 0.4 to 0.65, and variants with under about 50 input reads tend to read too high.
Some changes are missing from the data or left out.
Positive scores are uncertain; some enriched variants did not exclude APOBEC3G in a separate test.